Test: xn = mol fraction of the nth substance listed

CCCC[N+]1(C)CCCC1.O=S(=O)(F)[N-]S(=O)(=O)F + CCC[N+]1(C)CCCCC1.O=S(=O)(F)[N-]S(=O)(=O)F
101.3 kPa, x2 = 0
Settings | viscosity [mPa·s]
288.15 K | 135
298.15 K | 86
328.15 K | 30.4
343.15 K | 20.4

CCCC[N+]1(C)CCCC1.O=S(=O)(F)[N-]S(=O)(=O)F + CCCC[N+]1(C)CCCC1.O=C1O[B-]2(OC1=O)OC(=O)C(=O)O2
101.3 kPa, x1 = 1
Settings | viscosity [mPa·s]
293.15 K | 107
308.15 K | 58
323.15 K | 35.2

CCCC[N+]1(C)CCCC1.O=S(=O)(F)[N-]S(=O)(=O)F + O
100 kPa
Settings | electrical conductivity [S/m] | viscosity [mPa·s]
288.15 K, x1 = 0.8777 | 0.569 | –
288.15 K, x1 = 0.9002 | 0.54 | –
293.15 K, x1 = 0.817 | 0.744 | –
293.15 K, x1 = 0.9182 | – | 52.1
298.15 K, x1 = 0.8556 | 0.795 | –
303.15 K, x1 = 0.8545 | – | 32.1
303.15 K, x1 = 0.9002 | 0.86 | –
303.15 K, x1 = 0.9283 | 0.816 | –
308.15 K, x1 = 0.9002 | 0.983 | –
308.15 K, x1 = 0.9457 | – | 33.67
313.15 K, x1 = 0.8556 | 1.18 | –
313.15 K, x1 = 0.9771 | 0.987 | –
318.15 K, x1 = 0.8777 | 1.3 | –
318.15 K, x1 = 0.9283 | 1.2 | –
318.15 K, x1 = 0.9771 | 1.11 | –
323.15 K, x1 = 0.8018 | – | 16.4
323.15 K, x1 = 0.817 | 1.56 | –
323.15 K, x1 = 0.8556 | 1.48 | –
323.15 K, x1 = 0.9002 | 1.39 | –
323.15 K, x1 = 0.9771 | 1.25 | –
328.15 K, x1 = 0.817 | 1.74 | –
328.15 K, x1 = 0.9002 | 1.55 | –
328.15 K, x1 = 0.9283 | 1.5 | –
328.15 K, x1 = 0.9727 | – | 20.46
333.15 K, x1 = 0.8018 | – | 13.08
333.15 K, x1 = 0.8758 | – | 15
333.15 K, x1 = 0.8777 | 1.8 | –
333.15 K, x1 = 0.9457 | – | 17.24

Source: the CheMixHub ionic liquid set
